From publication PMC11440591 (Journal of Medicinal Chemistry, 2024)

Tested on: wild-type Zaire EBOV Mayinga 1976 strain (EBOV May)
Settings: selectivity index with EBOV May EC50

O=C(Nc1ccccc1)c1ccc(-c2cccc(OC3CCNCC3)c2)s1 [compound 53, N-Phenyl-5-(3-(piperidin-4-yloxy)phenyl)thiophene-2-carboxamide]
SI (CC50/EC50): 113
